Assay results taken from patent US4130645A (priority 1978, dated 1978).

How the values were obtained:
Format in all cases: in vivo
[1] = system: Podosphaera leucotricha (E&E) Salm.; test: Foliar fungicidal activity, control of apple powdery mildew on apple seedlings; conditions: for activity against apple powdery mildew: in words
[2] = system: Erysiphe graminis f. sp. hordei; test: Foliar fungicidal activity, control of barley powdery mildew on barley; conditions: 500 ppm
[3] = system: Pyricularia oryzae Carvara; test: Foliar fungicidal activity, control of rice blast on rice
[4] = system: Venturia inaequalis (Cke.) Wint.; test: Foliar fungicidal activity, control of apple scab on apple seedlings

O=[N+]([O-])Nc1c(Cl)cc([N+](=O)[O-])cc1Cl
Apple Powdery Mildew Percent Disease Control ([1]; 500 ppm): 84% | activity against apple powdery mildew [1]: active | Barley Powdery Mildew Percent Disease Control [2]: 100%

O=[N+]([O-])Nc1c(Cl)c(Cl)c([N+](=O)[O-])c(Cl)c1Cl
Rice Blast Percent Disease Control ([3]; 500 ppm): 86% | activity against the rice blast pathogen ([3]; in words): considerable activity | Apple Scab Percent Disease Control ([4]; 500 ppm): 81% | activity against apple scab ([4]; in words): active

O=[N+]([O-])Nc1c(Br)cc([N+](=O)[O-])cc1Br
activity against apple powdery mildew [1]: active

CCC(C)N(c1c([N+](=O)[O-])cc(C)c(C)c1[N+](=O)[O-])[N+](=O)[O-] (stereo not drawn)
Barley Powdery Mildew Percent Disease Control [2]: 89%
